This is an account of results in PubChem BioAssay AID1259309 (ICCB-Longwood Screening Facility, Harvard Medical School, 2017).

Molecules are shown by their SMILES. The entries are a selection whose mix differs from that of the whole data set. Activity calls are given as the source filed them. No stated cut-off is given here; in the data, active means growth inhibition above about 68%; inactive means the rest.

This assay in a line: growth inhibition of ugtP-null S. aureus, primary screen, RN4220 ugtP deletion, OD600 (AID 1259309).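 Further: plate controls were untreated wells for no effect and antibiotic for full effect.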 As to conditions: 16 h, hits give high values.
As to `O=[N+]([O-])c1cc([N+](=O)[O-])c(-c2ccn[nH]2)s1`, the growth inhibition is active: 86.8%.
`O=c1c2cc([N+](=O)[O-])ccc2[nH]c2c([N+](=O)[O-])cc([N+](=O)[O-])cc12`: the growth inhibition was active: 101%.
